{"source": "patent US20250092029A1", "about": "(THE WISTAR INSTITUTE OF ANATOMY AND BIOLOGY, priority 2022, published 2025)", "key": {"[1]": {"assay": "Metabolic stability in mouse liver microsomes"}, "[2]": {"target": "SARS-CoV-2 Mpro (Severe acute respiratory syndrome coronavirus 2 (2019-nCoV) (SARS-CoV-2), UniProt P0DTD1)", "conditions": "read-out: MPro IC50"}}, "data": [{"molecule": "O=C(CN1C(=O)[C@@H](NC(=O)c2cc3ccccc3cn2)COc2ccccc21)N[C@@H](C[C@@H]1CCNC1=O)C(=O)COC(=O)c1c(Cl)cccc1Cl", "values": [{"measurement": "half-life (T1/2)", "setting": "[1]", "value": "less than 2 minutes"}, {"measurement": "IC50", "setting": "[2]", "value": 0.58, "unit": "µM"}]}]}
